Results: US6548552B1 (priority 1997, dated 2003)

Tested on: TSST-1 production by S. aureus
Details: each agent at the concentration of b78: ascorbic acid 0.06%, propyl gallate 0.1%, delta-tocopherol 2.0%, cysteine 0.1%, N-acetyl-cysteine 0.2%, thiodipropionic acid 0.02%, bisulfites 0.05%, caffeine 0.025%, glutathione 0.2%

| Substance | effect on bacterial toxin production (in words) |
| --- | --- |
| beta-mercaptoethanol | reduced toxin production |
| delta-tocopherol | reduced toxin production |
| potassium bisulfite | exception |
| sodium bisulfite | reduced toxin production |
| thiodipropionic acid | reduced toxin production |
